Pooled drug test results. Numbers come from NIAID ChemDB, via PubChem.

All rows: tests on isolated targets

ICn: concentration for n% inhibition. Blank or dashed fields: not listed here. Fold resistance: result on the changed form divided by that on wild type. Inhibition is in % at the dose shown (toxicity tests: loss of growth or viability). Lines come from different laboratories, so protocols vary.

structure | conditions | method | species | measure | tested at | target | mutations | strain or isolate | value
Cc1cccc(C)c1OCC(=O)N[C@@H](Cc1ccccc1)[C@H](O)CN(CC(C)C)S(=O)(=O)c1ccc2nc(N)sc2c1 | - | fluorescence | HIV | IC50 | - | Protease | - | - | 0.002 µM
CC[C@H]1C=CCC[C@@]2(C[C@@H]3CC[C@@H]4[C@H](C(=O)OCc5ccccc5)[C@]5(CCC[C@@H](C)O5)NC(=[N+]34)N2)O1 | - | ELISA | HIV-1 | inhibition | 5 µM | Nef | - | NL4-3 | 79.8%
Nc1ncnc2c1ncn2[C@H]1C[C@H](O)[C@@H](COP(=O)(O)O)O1 | - | - | HIV | IC50 | - | RNase H | - | - | 3000 µM
Cc1c(Sc2ccccc2)n(COCCO)c(=O)[nH]c1=O | - | - | HIV | IC50 | - | Reverse transcriptase | RT-K103N Y181I Y188L | - | >5 µM
COc1ccc2c(c1)N(C(=O)OC(C)C)[C@@H](CSC)C(=S)N2 | - | RT activity | HIV | IC50 | - | Reverse transcriptase | RT-D67N K70R T215F K219Q Y188H | - | 0.028 µg/mL
Cc1cc(SC2=C(O)C[C@@](CCc3ccc(O)cc3)(C(C)C)OC2=O)c(C(C)(C)C)cc1N | - | - | HIV | fold resistance | - | Protease | PR-V32F/I84V | - | 24
C[C@@H]1O[C@@H](O[C@@H]2[C@@H](O)[C@H](OCCc3ccc(O)c(O)c3)O[C@H](CO)[C@H]2OC(=O)/C=C/c2ccc(O)c(O)c2)[C@H](O)[C@H](O)[C@H]1O | - | ELISA | HIV-1 | IC50 | - | gp41 | - | - | >50 µg/mL
C=CCOC(=O)C1=C(C)NC2=[N+]3[C@@H](CC[C@@H]13)C[C@@H](CCCCC[C@@H](C)OCc1ccccc1)N2 | - | ELISA | HIV-1 | IC50 | - | Nef | - | NL4-3 | <5 µM
O=C(/C=C/c1ccc(O)c(O)c1)O[C@H]1[C@H](O)[C@@H](O)[C@H](OCCc2ccc(O)c(O)c2)O[C@@H]1CO | - | ELISA | HIV-1 | IC50 | - | gp41 | - | - | >50 µg/mL
Cc1cccc(C)c1OCC(=O)N[C@@H](Cc1ccccc1)[C@H](O)CN(CC(C)C)S(=O)(=O)c1ccc2ncsc2c1 | - | fluorescence | HIV | IC50 | - | Protease | - | - | 0.004 µM
COC(O)/C=C/c1ccc2c(c1)c(C(=O)/C=C1\OC(C)(C)OC1=O)cn2Cc1ccc(F)cc1 | - | strand transfer / fluorescence | HIV-1 | fold resistance | - | Integrase | G140S | - | 0.9
O=S(=O)(SC(Cl)(Cl)Cl)c1cccc(S(=O)(=O)c2cccc(S(=O)(=O)SC(Cl)(Cl)Cl)c2)c1 | - | 3′ processing | HIV-2 | IC50 | - | Integrase | - | - | 38 µM
CN[C@@H]1[C@@H](O)[C@@H](O[C@@H]2[C@@H](O)[C@H](O[C@H]3O[C@H]([C@@H](C)N)CC[C@H]3N)[C@@H](N)C[C@H]2N)OC[C@]1(C)O | - | gel | HIV-1 | inhibition | 100 µM | Rev:RRE | - | - | 0%
C=CCOC(=O)C1=C(C)NC(N)=[N+]2[C@H](C[C@@H](O)CCCCCCOCc3ccccc3)CC[C@H]12 | - | ELISA | HIV-1 | inhibition | 5 µM | Nef | - | NL4-3 | 101%
COc1ccccc1-c1noc(=O)n1-c1cccc(C(F)(F)F)c1 | - | PCR | HIV-1 | inhibition | 1 µM | p17 | - | - | 53.5%
CN[C@@H]1[C@H](O[C@H]2[C@H](O[C@H]3[C@H](O)[C@@H](O)[C@H](N=C(N)N)[C@@H](O)[C@@H]3N=C(N)N)O[C@@H](C)[C@]2(O)C=O)O[C@@H](CO)[C@H](O)[C@H]1O | - | gel | HIV-1 | inhibition | 100 µM | Rev:RRE | - | - | 0%
Nc1ncnc2c1ncn2CCOCP(=O)(O)OP(=O)(O)OP(=O)(O)O | - | nucleotide incorporation / radiometric | HIV-1 | Ki | - | Reverse transcriptase | RT-A62V V75I F77L F116Y Q151M | - | 0.5 µM
NC[C@H]1O[C@H](O[C@H]2[C@H](O)[C@@H](O[C@H]3O[C@H](CO)[C@@H](O)[C@H](N)[C@H]3O)[C@H](N)C[C@@H]2N)[C@H](N)C[C@@H]1O | - | gel | HIV-1 | IC50 | - | Rev:RRE | - | - | <10 µM
O=NNc1ccc(S(=O)(=O)c2ccc(NN=O)cc2)cc1 | - | 3′ processing | HIV-2 | IC50 | - | Integrase | - | - | 20 µM
COc1cc(C[C@@]2(O)CO[C@H](c3ccc(O)c(OC)c3)[C@H]2CO)ccc1O | - | ELISA | HIV-1 | IC50 | - | gp41 | - | - | >50 µg/mL
Cc1ccc(S(=O)(=O)n2cc(C(C(=O)O)C(=O)O)c3cc(NC(=O)c4cccc(C)c4O)ccc32)cc1 | - | strand transfer / fluorescence | HIV-1 | fold resistance | - | Integrase | G140S | - | 0.9
CC(C)CN(C[C@@H](O)[C@H](Cc1ccccc1)NC(=O)OC1CCOC1)S(=O)(=O)c1ccc2nc(N)sc2c1 | - | fluorescence | HIV | IC50 | - | Protease | - | - | 0.002 µM
NC[C@@H]1O[C@H](O[C@H]2[C@@H](O)[C@H](O[C@@H]3[C@@H](O)[C@H](N)C[C@H](N)[C@H]3O[C@H]3O[C@H](CN)[C@@H](O)[C@H](O)[C@H]3N)O[C@@H]2CO)[C@H](N)[C@@H](O)[C@@H]1O | - | gel | HIV-1 | inhibition | 1 µM | Rev:RRE | - | - | 100%
CC[C@H]1C=CCC[C@@]2(C[C@@H]3CC[C@@H]4[C@H](C(=O)OC/C=C/c5ccccc5)[C@]5(CCC[C@@H](C)O5)NC(=[N+]34)N2)O1 | - | ELISA | HIV-1 | IC50 | - | Nef | - | NL4-3 | <5 µM
CC(C)[C@H](NC(=O)OCc1cccnc1)C(=O)N[C@@H](Cc1ccccc1)[C@H](O)[C@@H](O)[C@H](Cc1ccccc1)NC(=O)[C@@H](NC(=O)OCc1cccnc1)C(C)C | - | fluorescence | HIV-1 | inhibition | 0.001 µM | Protease | - | - | 78%
NC[C@H]1O[C@H](O[C@H]2[C@H](O)[C@@H](O)[C@H](N)C[C@@H]2N)[C@H](N)[C@@H](O)[C@@H]1O | - | gel | HIV-1 | IC50 | - | Rev:RRE | - | - | <100 µM
Cc1cn([C@@H]2O[C@H](CO[Si](C)(C)C(C)(C)C)[C@@]3(OS(=O)(=O)C=C3N)[C@H]2O[Si](C)(C)C(C)(C)C)c(=O)[nH]c1=O | - | nucleotide incorporation / radiometric | HIV | IC50 | - | Reverse transcriptase | RT-N137Q | - | 0.66 µM
CC[C@H]1C=CCC[C@@]2(C[C@@H]3CC[C@@H]4[C@H](C(=O)OCCCCCCCCCCC(=O)N(CCC[NH3+])C[C@@H](O)CC[NH3+])[C@]5(CCC[C@@H](C)O5)NC(=[N+]34)N2)O1 | - | ELISA | HIV-1 | IC50 | - | Nef | - | NL4-3 | <5 µM
CC(C)[C@H](NC(=O)OCc1ccccc1)C(=O)N[C@@H](Cc1ccccc1)[C@H](O)[C@H](O)[C@H](Cc1ccccc1)NC(=O)[C@@H](NC(=O)OCc1ccccc1)C(C)C | - | fluorescence | HIV-1 | IC50 | - | Protease | - | - | <0.001 µM
CC(C)CN(C[C@@H](O)[C@H](Cc1ccccc1)NC(=O)OCc1ccccc1)S(=O)(=O)c1ccc2nc(N)sc2c1 | - | fluorescence | HIV | IC50 | - | Protease | - | - | 0.002 µM
O=C(/C=C/c1ccc(O)c(O)c1)O[C@@H]1C[C@](OC(=O)/C=C/c2ccc(O)c(O)c2)(C(=O)O)C[C@@H](O)[C@H]1O | - | - | HIV-1 | IC50 | - | RNase H | - | - | >>97 µM
CC(C)CCN(C[C@@H](O)[C@H](Cc1ccccc1)NC(=O)OCc1ccccc1)C(=O)NC(C)(C)C | - | fluorescence | HIV | IC50 | - | Protease | - | - | 0.112 µM
CO[P@](=O)(c1cc(C)cc(/C=C/C#N)c1)c1c(C(N)=O)[nH]c2ccc(Cl)c(F)c12 | - | - | HIV | IC50 | - | Reverse transcriptase | K103N | - | 0.782 µM
O=[N+]([O-])c1cc(S(=O)(=O)c2ccc(S)c([N+](=O)[O-])c2)ccc1S | - | 3′ processing | HIV-2 | IC50 | - | Integrase | - | - | 2.8 µM
Cc1cccc(C)c1OCC(=O)N[C@@H](Cc1ccccc1)[C@H](OC(=O)CCC(=O)NCC(=O)OC[C@H]1O[C@@H](n2cc(C)c(=O)[nH]c2=O)C[C@@H]1N=[N+]=[N-])C(=O)N1CSC(C)(C)[C@H]1C(=O)NC(C)(C)C | - | - | HIV-1 | IC50 | - | Protease + Reverse transcriptase | - | - | >5 µM
Nc1ccn([C@H]2C[C@H](O)[C@@H](COP(=O)(O)OP(=O)(O)OP(=O)(O)O)O2)c(=O)n1 | - | nucleotide incorporation / radiometric | HIV-1 | fold resistance | - | Reverse transcriptase | RT-K65R | - | 0.76
Nc1nc2c(ncn2[C@H]2CC[C@@H](COP(=O)(O)OP(=O)(O)OP(=O)(O)O)O2)c(=O)[nH]1 | - | nucleotide incorporation / radiometric | HIV | fold resistance | - | Reverse transcriptase | RT-N137K | - | 128
Cc1cccc(C)c1OCC(=O)N[C@@H](Cc1ccccc1)[C@H](O)CN1CC[C@@H](Sc2ccncc2)C[C@H]1C(=O)NC(C)(C)C | - | fluorescence | HIV | Ki | - | Protease | PR-L23I V32I M46I I47V I54M A71V I84V | - | 0.0681 µM
Cc1ccc(S(=O)(=O)n2cc(/C(O)=C/C(=O)C(=O)O)c3cc(F)ccc32)cc1 | - | strand transfer / fluorescence | HIV-1 | fold resistance | - | Integrase | G140S | - | 5
O=Cc1cc(S(=O)(=O)c2ccc(O)c(C=O)c2)ccc1O | - | strand transfer | HIV-2 | IC50 | - | Integrase | - | - | 0.8 µM
Oc1[nH]c2ccc(Cl)cc2c1N=Nc1nc(-c2ccc(F)cc2F)cs1 | - | nucleotide incorporation / absorbance | HIV-1 | IC50 | - | RNase H | - | - | 10 µM
CC[C@H](C)[C@@H](NC(=O)[C@@H](C[C@H](O)[C@H](CC(C)C)NC(=O)[C@H](Cc1cnc[nH]1)NC(=O)[C@H](Cc1ccccc1)NC(=O)[C@@H]1CCCN1C(=O)[C@@H](N)Cc1cnc[nH]1)C(C)C)C(=O)N[C@@H](Cc1cnc[nH]1)C(=O)O | pH 6.0 | HPLC | HIV-2 | Ki | - | Protease | - | - | 0.01 µM
O=C(O)C(=O)/C=C(\O)c1cn(Cc2cc(F)ccc2F)c2ccc(Br)cc12 | - | strand transfer / fluorescence | HIV-1 | fold resistance | - | Integrase | Y143R | - | 1
Cc1cccc(C)c1OCC(=O)N[C@@H](Cc1ccccc1)[C@H](OC(=O)CCCC(=O)NCCC(=O)OC[C@H]1O[C@@H](n2cc(C)c(=O)[nH]c2=O)C[C@@H]1N=[N+]=[N-])C(=O)N1CSC(C)(C)[C@H]1C(=O)NC(C)(C)C | - | - | HIV-1 | IC50 | - | Protease + Reverse transcriptase | - | - | >5 µM
CC(C)[C@H](NC(=O)c1ccc2ccccc2n1)C(=O)N[C@@H](Cc1ccccc1)[C@H](O)CN1CC[C@@H](OCc2ccncc2)C[C@H]1C(=O)NC(C)(C)C | - | substrate cleavage / HPLC | HIV-2 | IC50 | - | Protease | - | - | 0.01 µM
Cc1ccc(S(=O)(=O)n2cc(C(=O)/C=C3\OC(C)(C)OC3=O)c3cc(Br)ccc32)cc1 | - | strand transfer / fluorescence | HIV-1 | fold resistance | - | Integrase | G140S | - | 0.8
CC(C)[C@H](NC(=O)c1ccc2ccccc2n1)C(=O)N[C@@H](Cc1ccccc1)[C@H](O)CN1CC[C@@H](SCc2cccnc2)C[C@H]1C(=O)NC(C)(C)C | - | fluorescence | HIV-2 | Ki | - | Protease | - | - | 0.000049 µM
NC[C@@H]1O[C@H](O[C@H]2[C@@H](O)[C@H](O[C@@H]3[C@@H](O)[C@H](N)C[C@H](N)[C@H]3O[C@H]3O[C@H](CO)[C@@H](O)[C@H](O)[C@H]3N)O[C@@H]2CO)[C@H](N)[C@@H](O)[C@@H]1O | - | gel | HIV-1 | inhibition | 100 µM | Rev:RRE | - | - | 0%
CC(C)[C@H](NC(=O)NCc1ccccn1)C(=O)N[C@@H](Cc1ccccc1)C(O)[C@H](Cc1ccccc1)NC(=O)[C@@H](NC(=O)NCc1ccccn1)C(C)C | - | fluorescence | HIV-1 | inhibition | 0.001 µM | Protease | - | - | 33%
COC(=O)C(=O)OC1(C(=O)O)C[C@@H](OC(=O)/C=C/c2ccc(O)c(O)c2)C(O)[C@H](OC(=O)/C=C/c2ccc(O)c(O)c2)C1 | - | - | HIV-1 | IC50 | - | RNase H | - | - | >83 µM
Nc1ncnc2c1ncn2[C@@H]1O[C@H](COP(=O)(O)OP(=O)(O)OP(=O)(O)O)C[C@@H]1F | - | nucleotide incorporation / radiometric | HIV-1 | Ki | - | Reverse transcriptase | RT-Q151M | - | 6.4 µM
Cc1cn([C@@H]2O[C@H](CO[Si](C)(C)C(C)(C)C)C3(OS(=O)(=O)C=C3N)[C@H]2O[Si](C)(C)C(C)(C)C)c(=O)n(C)c1=O | - | nucleotide incorporation / radiometric | HIV | fold resistance | - | Reverse transcriptase | RT-N137T | - | 0.19
NC[C@H]1O[C@H](O[C@H]2[C@H](O)[C@@H](O)[C@H](N)C[C@@H]2N)[C@H](N)[C@@H](O)[C@@H]1O | - | - | HIV-1 | IC50 | - | Rev:RRE | - | - | >100 µM
CCC(c1cccc(NC(=O)CNC(=O)OC(C)(C)C)c1)c1c(O)c2ccccc2oc1=O | - | substrate cleavage | HIV-2 | Ki | - | Protease | - | - | 0.037 µM
Nc1ccn([C@@H]2CS[C@H](COP(=O)(O)OP(=O)(O)OP(=O)(O)O)O2)c(=O)n1 | - | nucleotide incorporation / radiometric | HIV-1 | fold resistance | - | Reverse transcriptase | RT-M184V | - | 71.54
CC(C)CN(C[C@@H](O)[C@H](Cc1ccccc1)NC(=O)OCc1ccccc1)S(=O)(=O)c1ccc2ncsc2c1 | - | fluorescence | HIV | IC50 | - | Protease | - | - | 0.003 µM
CCOC(=O)C(C(=O)OCC)c1cn(S(=O)(=O)c2ccc(C)cc2)c2ccc(NC(=O)c3cc(F)c(F)c(F)c3)cc12 | - | strand transfer / fluorescence | HIV-1 | fold resistance | - | Integrase | G140S | - | 1
NC(Cc1ccccc1)C(O)C(F)(F)C(N)Cc1ccccc1 | - | fluorescence | HIV-1 | inhibition | 0.005 µM | Protease | - | - | 92%
O=C(/C=C/c1ccc(O)c(O)c1)OC[C@H]1O[C@@H](OCCc2ccc(O)c(O)c2)[C@H](O)[C@@H](O)[C@@H]1O | - | ELISA | HIV-1 | inhibition | 50 µg/mL | gp41 | - | - | 25%
O=C(O)C(C(=O)O)c1c[nH]c2ccc([N+](=O)[O-])cc12 | - | strand transfer / fluorescence | HIV-1 | fold resistance | - | Integrase | G140S | - | 0.8